Source: patent US20220324835A1 (Nurix Therapeutics, Inc., priority 2018, published 2022)

Legend:
[1] = test system: in vitro generated exhausted human T-cells; details: exhausted T-cells stimulated with SEB and autologous myeloid cells; for CTLA4 CD4, fold change over baseline: CD4 T-cells; for CTLA4 CD8, fold change over baseline: CD8 T-cells
[2] = test system: in vitro generated exhausted human T-cells; test: Exhausted T-cell activation assessed by cytokine secretion (autologous SEB/myeloid cell model); details: exhausted T-cells stimulated with SEB and autologous myeloid cells, 3 days

Compound	CTLA4 CD4, fold change over baseline [1]	CTLA4 CD8, fold change over baseline [1]	Cytokines GM-CSF, fold change over baseline [2]	Cytokines IFNγ, fold change over baseline [2]	Cytokines IL-2, fold change over baseline [2]
Cn1cnnc1CC1(c2cccc(NC(=O)c3nc4c(C(F)(F)F)cccc4[nH]3)c2)COC1 [Compound 335, N-(3-{3-[(4-methyl-1,2,4-triazol-3-yl)methyl]oxetan-3-yl}phenyl)-4-(trifluoromethyl)-1H-1,3-benzodiazole-2-carboxamide]	C (C indicates >1.61)	C (C indicates >1.61)	A (A indicates ≤1.40)	B (B indicates 1.41-1.60)	C (C indicates >3.01)
Cc1cc(C(=O)Nc2cccc(C3(Cc4nncn4C)COC3)c2)nc(C2CC2)n1 [Compound 336, 2-cyclopropyl-6-methyl-N-(3-(3-((4-methyl-4H-1,2,4-triazol-3-yl)methyl)oxetan-3-yl)phenyl)pyrimidine-4-carboxamide]	A (A indicates ≤1.40)	A (A indicates ≤1.40)	C (C indicates >1.61)	B (B indicates 1.41-1.60)	C (C indicates >3.01)
Cn1cnnc1[C@@H]1C[C@@H]1c1cccc(N2Cc3c(ccnc3C(F)(F)F)C2=O)c1 [Compound 369, 2-{3-[(1S,2R)-2-(4-methyl-4H-1,2,4-triazol-3-yl)cyclopropyl]phenyl}-4-(trifluoromethyl)-1H,2H,3H-pyrrolo[3,4-c]pyridin-1-one]	A (A indicates ≤1.40)	A (A indicates ≤1.40)	A (A indicates ≤1.40)	A (A indicates ≤1.40)	A (A indicates ≤2.50)
Cc1cc2c(c(C3CC3)n1)CN(c1cccc([C@H](C)Cc3nncn3C)c1)C2=O [Compound 372, 4-cyclopropyl-6-methyl-2-{3-[(2R)-1-(4-methyl-4H-1,2,4-triazol-3-yl)propan-2-yl]phenyl}-1H,2H,3H-pyrrolo[3,4-c]pyridin-1-one]	A (A indicates ≤1.40)	A (A indicates ≤1.40)	A (A indicates ≤1.40)	A (A indicates ≤1.40)	A (A indicates ≤2.50)
CNCc1ccc(C(=O)Nc2cccc([C@H](C)Cc3nncn3C)c2)nc1C1CC1 [Compound 376, (R)-6-cyclopropyl-N-(3-(1-(4-methyl-4H-1,2,4-triazol-3-yl)propan-2-yl)phenyl)-5-((methylamino)methyl)picolinamide]	C (C indicates >1.61)	C (C indicates >1.61)	A (A indicates ≤1.40)	A (A indicates ≤1.40)	B (B indicates 2.51-3.00)
Cc1n[nH]c(C)c1-c1cc2c(c(C(F)(F)F)c1)CN(c1cccc(C3(Cc4nncn4C)COC3)c1)C2=O [Compound 385, 6-(3,5-dimethyl-1H-pyrazol-4-yl)-2-(3-{3-[(4-methyl-4H-1,2,4-triazol-3-yl)methyl]oxetan-3-yl}phenyl)-4-(trifluoromethyl)-2,3-dihydro-1H-isoindol-1-one]	C (C indicates >1.61)	C (C indicates >1.61)	A (A indicates ≤1.40)	B (B indicates 1.41-1.60)	A (A indicates ≤2.50)
C[C@H](Cc1nncn1C)c1cccc(N2Cc3c(cc(CN4CC(O)C4)cc3C(F)(F)F)C2=O)c1 [Compound 393, (R)-6-((3-hydroxyazetidin-1-yl)methyl)-2-(3-(1-(4-methyl-4H-1,2,4-triazol-3-yl)propan-2-yl)phenyl)-4-(trifluoromethyl)isoindolin-1-one]	C (C indicates >1.61)	C (C indicates >1.61)	B (B indicates 1.41-1.60)	C (C indicates >1.61)	C (C indicates >3.01)
C[C@H](Cc1nncn1C)c1cccc(N2Cc3c(cc(CN4CC(C)(O)C4)cc3C(F)(F)F)C2=O)c1 [Compound 397]	C (C indicates >1.61)	C (C indicates >1.61)	B (B indicates 1.41-1.60)	C (C indicates >1.61)	B (B indicates 2.51-3.00)
C[C@H](Cc1nncn1C)c1cccc(N2Cc3c(cc(CN4CC[C@](C)(O)C4)cc3C(F)(F)F)C2=O)c1 [Compound 398, 6-(((S)-3-hydroxy-3-methylpyrrolidin-1-yl)methyl)-2-(3-((R)-1-(4-methyl-4H-1,2,4-triazol-3-yl)propan-2-yl)phenyl)-4-(trifluoromethyl)isoindolin-1-one]	B (B indicates 1.41-1.60)	C (C indicates >1.61)	C (C indicates >1.61)	C (C indicates >1.61)	B (B indicates 2.51-3.00)
C[C@H](Cc1nncn1C)c1cccc(N2Cc3c(cc(CN4CC[C@H](F)C4)cc3C(F)(F)F)C2=O)c1 [Compound 399, 6-(((S)-3-fluoropyrrolidin-1-yl)methyl)-2-(3-((R)-1-(4-methyl-4H-1,2,4-triazol-3-yl)propan-2-yl)phenyl)-4-(trifluoromethyl)isoindolin-1-one]	C (C indicates >1.61)	C (C indicates >1.61)	C (C indicates >1.61)	C (C indicates >1.61)	C (C indicates >3.01)
C[C@@H](c1cc2c(c(C(F)(F)F)c1)CN(c1cccc(C3(Cc4nncn4C)COC3)c1)C2=O)N1CC[C@H](F)C1 [Compound 412, 6-((S)-1-((S)-3-fluoropyrrolidin-1-yl)ethyl)-2-(3-(3-((4-methyl-4H-1,2,4-triazol-3-yl)methyl)oxetan-3-yl)phenyl)-4-(trifluoromethyl)isoindolin-1-one]	A (A indicates ≤1.40)	A (A indicates ≤1.40)	B (B indicates 1.41-1.60)	C (C indicates >1.61)	A (A indicates ≤2.50)
